The values below come from paper PMC12291119 (ACS Central Science, 2025).

The nature of the data set: general procedure: Fmoc solid-phase peptide synthesis; H-Rink amide Chemmatrix resin pre-loaded with Fmoc-Lys(biotin)-OH; DIC/Oxyma.

On to H1-IAAIA-peptide, for which the step yield (purification step, of the material that was purified) is 2.6%.
In turn, H1-IAAIA-cyclic peptide registered a cyclisation yield (cyclisation step, on linear precursor) of 37% yield.
